## Primary screen of a compound library

Mtb cholesterol medium: 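Growth of Mycobacterium tuberculosis over 4 days (cholesterol / DPPC medium with tyloxapol); the read-out is not stated. Concentration: 500 µM. Higher reads as more growth inhibition (inferred: compounds with an IC50 in retests scored well above the rest). Of about 18,000 compounds tested this way, about 900 (5%) reached 50% or more in at least one test.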
Mtb glucose medium: 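Growth of Mycobacterium tuberculosis over 3 days (7H9 medium with glucose and tyloxapol); the read-out is not stated. Compounds at 500 µM. The record gives no direction; compounds that gave an IC50 in retests scored well above the rest, so higher reads as more growth inhibition. About 18,000 compounds were tested under these conditions; 7.9% (about 1,400) showed 50% or more at least once.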

The filed quantity is “Percent Effect” (%).
The controls that fix the scale are not given in the record; negative values are as filed.
Many other results are left out here, so strong results are more common than in the screen.

{"smiles": "Cc1cnc(C(=O)N2CCC(O)(CN(C)C)C2)cn1", "stereo": "stereo not shown", "Mtb glucose medium": 0.0122}
{"smiles": "Cc1noc(CCNC(=O)NCCc2ccccn2)n1", "Mtb cholesterol medium": -1.735}
{"smiles": "N#CCC1(O)CN(S(=O)(=O)C=Cc2ccc(Cl)cc2)C1", "Mtb cholesterol medium": 49.09, "Mtb glucose medium": 61.19}
{"smiles": "CCN(CCOC)C(=O)c1cc(-c2cccn2C)n[nH]1", "Mtb glucose medium": -0.07939}
{"smiles": "CC(C)(C)OC(=O)N1CCCOC(CN)C1", "stereo": "stereo not shown", "Mtb glucose medium": 29.3}
{"smiles": "Cc1cc(CNS(=O)(=O)N(C)C)ccc1F", "Mtb cholesterol medium": 11.06, "Mtb glucose medium": 31.98}
{"smiles": "COCCCC1(CO)CCCN(Cc2cncnc2)C1", "stereo": "stereo not shown", "Mtb glucose medium": 8.066}
{"smiles": "NC1CCC(OCC(=O)Nc2nccs2)CC1", "stereo": "stereo not shown", "Mtb glucose medium": -6.532}
{"smiles": "CC(C)(O)c1nnc(N)o1", "Mtb glucose medium": 6.048}
{"smiles": "CN(C)C(=O)CSc1nnc(C(F)(F)F)s1", "Mtb cholesterol medium": 64.57, "Mtb glucose medium": 80.33}
{"smiles": "COCCOc1ccc(C#N)cn1", "Mtb cholesterol medium": 3.295}
{"smiles": "COc1cccc(OCCN2CCNCC2)c1", "Mtb glucose medium": 44.9}
{"smiles": "CCCn1cc(NC(C)CCn2cncn2)cn1", "stereo": "stereo not shown", "Mtb glucose medium": 31.33}
{"smiles": "COc1ccccc1C(N)c1ccccn1", "stereo": "stereo not shown", "Mtb glucose medium": 59.12}
{"smiles": "CCN1CCC(NC(=O)c2c(F)cccc2OC)C1", "stereo": "stereo not shown", "Mtb cholesterol medium": -16.09}
{"smiles": "CCN(CC)CCS(=O)(=O)c1ccccc1", "Mtb cholesterol medium": 71.3, "Mtb glucose medium": 93.96}
{"smiles": "CCN(C)C(=O)CCOc1ccccc1C(N)=O", "Mtb glucose medium": -0.3894}
{"smiles": "OCCC1COCCN1", "stereo": "stereo not shown", "Mtb cholesterol medium": 1.242}
{"smiles": "O=C(CCc1ccc(Cl)s1)NCC(O)C1CCOCC1", "stereo": "stereo not shown", "Mtb glucose medium": 25.85}
{"smiles": "CC(C)Cc1nc(CN2C(=O)CCNC2=O)no1", "Mtb glucose medium": 0.2896}
{"smiles": "CN(C)CCOc1ccc(NS(C)(=O)=O)cc1", "Mtb cholesterol medium": -3.19, "Mtb glucose medium": -9.327}
{"smiles": "CCS(=O)(=O)N(C)CC(=O)Nc1cc(C)on1", "Mtb cholesterol medium": 0.695, "Mtb glucose medium": 11.96}
{"smiles": "CCOc1cccc(CNS(C)(=O)=O)c1", "Mtb cholesterol medium": 37.95, "Mtb glucose medium": 47.87}
{"smiles": "Cn1c(C(=O)N2CCCS2(=O)=O)cc2ccccc21", "Mtb cholesterol medium": 11.95}
{"smiles": "Cc1cc(C(=O)NCc2ccccn2)[nH]n1", "Mtb cholesterol medium": 5.781, "Mtb glucose medium": -3.122}
{"smiles": "CCn1c(CN2CCN(C)CC2)nnc1[C@H]1C[C@@H](N)C1", "Mtb glucose medium": -12.13}
{"smiles": "COc1cc(Cl)cc(CN(C)[C@H]2COC[C@@H]2O)c1OC", "Mtb cholesterol medium": 8.008}
{"smiles": "NCc1ccnc(NC2CC2)c1", "Mtb glucose medium": 11.17}
{"smiles": "CCCC(=O)Nc1ccc(S(=O)(=O)NCC)cc1", "Mtb glucose medium": 8.022}
{"smiles": "CN(C)c1nc(-c2ccc3c(c2)CCC(=O)N3)cs1", "Mtb cholesterol medium": 56.62, "Mtb glucose medium": 56.25}
{"smiles": "O=C1NC(Cc2ccccc2)C(=O)Nc2ccccc21", "stereo": "stereo not shown", "Mtb glucose medium": 18.08}

The first 3 entries again:

With Cc1cnc(C(=O)N2CCC(O)(CN(C)C)C2)cn1 (stereo not shown) the screen gave Mtb glucose medium: 0.0122%.
With Cc1noc(CCNC(=O)NCCc2ccccn2)n1 the screen gave Mtb cholesterol medium: -1.735%.
With N#CCC1(O)CN(S(=O)(=O)C=Cc2ccc(Cl)cc2)C1 the screen gave Mtb cholesterol medium: 49.09%; Mtb glucose medium: 61.19%.

From ChEMBL document CHEMBL3988442, “University of Dundee, Small-Polar-MMV Screening Library” (2021).